Pooled drug test results. Numbers come from NIAID ChemDB, via PubChem.

Common to all: toxicity to cultured cells; cell line: VERO; endpoint: CC50

Blank or dashed fields: not listed here. Lines come from different laboratories, so protocols vary. CCn is the concentration with n% toxicity to the cells.

smiles | method | value
CN(C)/C=C/c1ccnc2c1C(=O)c1ccccc1C2=O |  | 9.1 µg/mL
CC1=C2CC(C)(C)C[C@H]2[C@H](OC(=O)[C@H](O)[C@@H](NC(=O)c2ccccc2)c2ccccc2)C2=C(C1)C(=O)OC2 |  | 212.7 µg/mL
O=C(NN=Cc1ccncc1)c1ccccc1Sc1ccccc1 |  | >50 µg/mL
O=C(NC(=O)Nc1ccc(Cl)cc1)NC(=O)c1ccccc1F |  | >50 µg/mL
O=C(O)c1c2n(c3cc(F)c(N4CCN(C(=O)c5ccco5)CC4)cc3c1=O)CS2 | MTT | >146 µM
Cc1csc(N=Nc2ccc(N(C)C)cc2)[n+]1[O-] |  | >10 µg/mL
COc1cc2c(cc1OC)CN(c1c([N+](=O)[O-])cc3c(=O)c(C(=O)O)cn(C4CC4)c3c1C)CC2 |  | 130 µM
O=c1[nH]c(=S)cnn1[C@@H]1O[C@H](CO)C(O)C1O |  | 233 µg/mL
O=C(CN1c2c(-c3ccccc3)n[nH]c2-c2ccccc2S1(=O)=O)N/N=C/c1ccccc1[N+](=O)[O-] |  | 59.3 µM
Cc1c2cc[n+](CCN3CCCCC3)cc2c(C)c2c1[nH]c1ccc(O)cc12 |  | 4.71 µg/mL
CC1(C)C[C@@H]2[C@@H](OC(=O)[C@H](O)[C@@H](NC(=O)c3ccccc3)c3ccccc3)c3cocc3C[C@](C)(O)[C@H]2C1 |  | 135.5 µg/mL
Nc1ccn(CC[C@H](O)CCO)c(=O)n1 |  | >400 µg/mL
O=C(Cc1ccccc1Nc1c(Cl)cccc1Cl)N/N=C/c1ccccc1Cl |  | >23.1 µM
Cc1csc(C(=O)/C=C/c2cc3cc(C)ccc3nc2Cl)c1 | MTS | 64.2 µM
C=CCNc1nc2c(s1)C(=O)c1ccccc1C2=O |  | 4 µg/mL
COc1ccc2nc(Cl)c(/C=C/C(=O)c3cc(Cl)sc3Cl)cc2c1 | MTS | 4.6 µM
CC(C)(C)NC(=O)C1c2ccccc2CCN1c1cc2c(=O)c(C(=O)O)c3n(c2cc1F)CS3 | MTT | 130 µM
CN(C)c1ccc(/C=N/NC(=O)CN2c3c(-c4ccccc4)n[nH]c3-c3ccccc3S2(=O)=O)cc1 |  | 14.6 µM
Nc1ncnc2c1ncn2[C@@H]1O[C@H](CSCCC(N)C(=O)O)C[C@H]1O |  | 200 µg/mL
O=C(O)c1c2n(c3cc(F)c(N4CCSCC4)cc3c1=O)CS2 | MTT | 177 µM
Nc1ncnc2c1CCN2[C@@H]1O[C@H](CSCCC(N)C(=O)O)C[C@H]1O |  | 400 µg/mL
O=C(O)c1cn(C2CC2)c2cc(N3CCN(C(c4ccccc4)c4ccc(Cl)cc4)CC3)c(F)cc2c1=O |  | >117.5 µM
CC1CN(c2cc3c(=O)c(C(=O)O)c4n(c3cc2F)CS4)CC(C)O1 | MTT | >172 µM
Cc1c(N2COCC2(C)C)c([N+](=O)[O-])cc2c(=O)c(C(=O)O)cn(C3CC3)c12 |  | 161 µM
Nc1nc2c(ncn2[C@@H]2O[C@H](CO)[C@@H](O)[C@H]2O)c(=O)o1 |  | 680 µM
Nc1ccn(C[C@@H](CO)OCP(=O)(O)O)c(=O)n1 |  | >100 µg/mL
O=C(O)c1c2n(c3cc([N+](=O)[O-])c(N4CCC(N5CCCCC5)CC4)cc3c1=O)CS2 | MTT | 141 µM
C[C@]1(Cn2cnc3c(=O)[nH]c(N)nc32)[C@@H](COCP(=O)(O)O)C1(F)F |  | >100 µM
CCN(CC)C(=O)C1CCCN(c2cc3c(cc2[N+](=O)[O-])c(=O)c(C(=O)O)cn3-c2ccc(F)cc2F)C1 |  | 62.38 µM
C[C@]1(CO)[C@@H](Cn2cnc3c(=O)[nH]c(N)nc32)C1(F)F |  | >100 µM
CCN(CC)c1ccc(/C=N/NC(=O)CN2c3c(-c4ccccc4)n[nH]c3-c3ccccc3S2(=O)=O)cc1 |  | 62.6 µM
Cc1c(N2CCN(C)C(c3ccccc3)C2)c([N+](=O)[O-])cc2c(=O)c(C(=O)O)cn(C3CC3)c12 |  | 135 µM
COC(=O)N1c2ccccc2N(C(=O)OC)c2c1oc1ccccc1c2=O |  | >12.5 µg/mL
CCCCc1nc(Cl)c(C2C(C(=O)Nc3ccc(Cl)cc3)=C(C)NC(C)=C2C(=O)Nc2ccc(Cl)cc2)[nH]1 | MTT | 7.8 µg/mL
COc1cc(NCc2cnc3nc(N)nc(N)c3c2C)cc(OC)c1 |  | 40.6 µg/mL
O=C(Cc1ccccc1Nc1c(Cl)cccc1Cl)N/N=C/c1ccccc1O |  | >24.13 µM
CCCCc1nc(Cl)c(C2C(C(=O)Nc3ccc([N+](=O)[O-])cc3)=C(C)NC(C)=C2C(=O)Nc2ccc([N+](=O)[O-])cc2)[nH]1 | MTT | >10 µg/mL
N=C1C=C(N)C(=O)c2[nH]c(=O)ccc21 |  | 0.38 µg/mL
CN(C)/C=C/c1c2c(nc3ccccc13)C(=O)c1ccccc1C2=O |  | 5.9 µg/mL
Cc1c(C(=O)NCc2ccccc2)[n+](=O)c2cc(F)c(F)cc2n1[O-] |  | >18.3 µg/mL
CC(C)(C)C(=O)OCn1nc([C@@H]2O[C@H](CO)[C@@H](O)[C@H]2O)c2ncnc(N)c21 |  | 40 µg/mL
COC1=NC2=CC(=O)c3c(c(OC(C)=O)c(C)c4c3C(=O)[C@@](C)(O/C=C/[C@H](OC)[C@@H](C)[C@@H](OC(C)=O)[C@H](C)[C@H](O)[C@H](C)[C@@H](OC(C)=O)[C@@H](C)/C=C/C=C\1C)O4)C2=O |  | 14.34 µg/mL
CCNC(=S)Nc1ccc(-c2n[nH]c(=S)n2C)cc1 |  | <0.303 µg/mL
O=C(O)c1c2n(c3cc([N+](=O)[O-])c(N4CCN(Cc5ccc6c(c5)OCO6)CC4)cc3c1=O)CS2 | MTT | 126 µM
CC1(C)C(OC2O[C@H](C(=O)O)[C@@H](O)[C@H](NC3[C@@H](O)[C@H](O)[C@@H](CO)O[C@@H]3O)[C@H]2OC2O[C@H](O)[C@@H](O)[C@H](O)[C@H]2C(=O)O)CC[C@@]2(C)C1CC[C@]1(C)C2C(=O)C=C2C3C[C@@](C)(C(=O)O)CC[C@]3(C)CC[C@]21C |  | 250 µg/mL
COc1ccc2nc(Cl)c(/C=C/C(=O)c3sccc3Br)cc2c1 | MTS | 9.5 µM
OC[C@H]1O[C@@H](n2ncc(=S)[nH]c2=S)C(O)C1O |  | 464 µg/mL
O=CNCCCC[C@H](NC(=O)[C@H]1COC(c2ccccc2O)=N1)C(=O)O |  | >64 µg/mL
COc1ccc(/C=N/NC(=O)CN2c3c(-c4ccccc4)n[nH]c3-c3ccccc3S2(=O)=O)c(OC)c1 |  | 82.8 µM
O=C(O)c1cn(C2CC2)c2cc(N3CCC(O)(c4ccc(Cl)cc4)CC3)c([N+](=O)[O-])cc2c1=O |  | >137 µM
CO[C@H](CO)[C@@H](O)CCn1cc(C)c(=O)[nH]c1=O |  | >400 µg/mL
CO[C@H]1/C=C/O[C@@]2(C)Oc3c(C)c(O)c4c(O)c(c5c(c4c3C2=O)NC2(CCN(Cc3ccccc3)CC2)N=5)=NC(=O)/C(C)=C\C=C\[C@H](C)[C@H](O)[C@@H](C)[C@@H](O)[C@@H](C)[C@H](OC(C)=O)[C@@H]1C |  | 0.07 µg/mL
Cc1c(N2CCC(n3c(=O)[nH]c4cc(Cl)ccc43)CC2)c([N+](=O)[O-])cc2c(=O)c(C(=O)O)cn(C3CC3)c12 |  | 116 µM
CC1(C)C[C@H]2[C@H](OC(=O)[C@H](O)[C@@H](NC(=O)c3ccccc3)c3ccccc3)C3=C(COC3=O)C[C@](C)(O)[C@H]2C1 |  | 107.9 µg/mL
O=C(CN1c2c(-c3ccccc3)n[nH]c2-c2ccccc2S1(=O)=O)N/N=C/c1ccc([N+](=O)[O-])cc1 |  | 50 µM
Cn1c([N+](=O)[O-])cnc1C=NNC(=O)c1ccccc1Sc1ccccc1 |  | >50 µg/mL
COc1ccc(C)c(NCc2cnc3nc(N)nc(N)c3c2C)c1 |  | 461 µg/mL
Nc1ncnc2c([C@@H]3O[C@H](CSCCC(N)C(=O)O)[C@@H](O)[C@H]3O)[nH]nc12 |  | 100 µg/mL
Cc1c(CN2CCSCC2)cc(-c2cccc3ccccc23)n1-c1ccc(F)cc1 |  | >128 µg/mL
CCOC(=O)C(NC(=O)c1ccccc1)(N1CCN(c2cc3c(cc2F)c(=O)c(C(=O)O)cn3CC)CC1)C(F)(F)F |  | >62.5 µg/mL
CC(=O)OCCOCn1cnc2c(=O)oc(N)nc21 |  | 600 µM
CCOC(=O)C(N)CCSC[C@H]1O[C@@H](n2ccc3c(N)ncnc32)[C@H](O)[C@@H]1O |  | 100 µg/mL
COc1cc(/C=N/NC(=O)Cc2ccccc2Nc2c(Cl)cccc2Cl)ccc1O |  | >22.56 µM
Cc1cc(NS(=O)(=O)c2ccc(NC(NC(=O)C(C(F)(F)F)C(F)(F)F)(C(F)(F)F)C(F)(F)F)cc2)no1 |  | 283 µg/mL
CO[C@H](CO)[C@@H](O)CCn1cnc2c(N)ncnc21 |  | >400 µg/mL
O=C(O)c1c2n(c3cc(F)c(N4CCC(O)(c5ccc(Cl)cc5)CC4)cc3c1=O)CS2 | MTT | 135.6 µM
COC1/C=C\C=C(/C)C(=O)Nc2cc3nc4cccc(Br)c4oc-3c(c2=O)CC(C)CC(OC)C(O)C(C)/C=C(\C)C1OC(N)=O |  | >10 µg/mL
O=CNCCCC[C@@H](NC(=O)[C@@H]1COC(c2ccccc2O)=N1)C(=O)O |  | >64 µg/mL
Cc1c(CNc2cccc3c2CCCC3)cnc2nc(N)nc(N)c12 |  | 322 µg/mL
O=c1cnn([C@@H]2O[C@H](COP(=O)(O)O)[C@@H](O)[C@H]2O)c(=O)[nH]1 |  | 31 µg/mL
CN(C)CCc1c2c(nc3ccccc13)C(=O)c1ccccc1C2=O |  | 3.5 µg/mL
O=C(NN=Cc1ccc([N+](=O)[O-])s1)c1ccccc1Sc1ccccc1 |  | 3.11 µg/mL
C=CCCCCn1c2ccccc2c2c(C)c3c[n+](C)ccc3c(C)c21 |  | 5 µg/mL
CCCCc1nc(Cl)c(C2C(C(=O)Nc3ccccc3[N+](=O)[O-])=C(C)NC(C)=C2C(=O)Nc2ccccc2[N+](=O)[O-])[nH]1 | MTT | 9.1 µg/mL
CO[C@H]1/C=C/O[C@@]2(C)Oc3c(C)c(OC(C)=O)c4c(c3C2=O)C(=O)C=C(NC(=O)/C(C)=C\C=C\[C@H](C)[C@H](O)[C@@H](C)[C@@H](O)[C@@H](C)[C@H](OC(C)=O)[C@@H]1C)C4=O |  | 1.73 µg/mL
O=C(NN=Cc1ccccc1)c1ccccc1Sc1ccccc1 |  | >50 µg/mL
CCOP(=O)(OCC)C1=NOC(Cn2cc(F)c(=O)[nH]c2=O)C1 |  | >400 µM
Nc1ncnc2c([C@H]3C[C@H](O)[C@@H](CO)O3)[nH]nc12 |  | 400 µg/mL
CCN(CC)C(=S)S.CCNCC |  | 4.3 µg/mL
COc1ccc2nc(Cl)c(/C=C/C(=O)c3ccc(Br)s3)cc2c1 | MTS | 13.2 µM
Nc1ncnc2c([C@@H]3O[C@H](CO)C[C@H]3O)[nH]nc12 |  | 400 µg/mL
COc1ccc2nc(Cl)c(/C=C/C(=O)c3sccc3Cl)cc2c1 | MTS | 14.2 µM
Nc1ncnc2c1ncn2CC[C@H](O)CCO |  | >400 µg/mL
CC(=O)O[C@H]1C2=C(C[C@](C)(O)[C@H]3C[C@](C)(COC(=O)[C@H](O)[C@@H](NC(=O)c4ccccc4)c4ccccc4)C[C@@H]13)C(=O)OC2 |  | >1000 µg/mL
Cc1ccc2nc(Cl)c(/C=C/C(=O)c3cc(C)oc3C)cc2c1 | MTS | >100 µM
CCN(CC)C(=O)C1CCCN(c2cc3c(cc2[N+](=O)[O-])c(=O)c(C(=O)O)cn3C2CC2)C1 |  | >146 µM
NNc1ccc2cccc(O)c2n1 |  | 4.18 µg/mL
CC(C)(C)OC(=O)NC1C2CN(c3cc4c(=O)c(C(=O)O)c5n(c4cc3F)CS5)CC21 | MTT | 140 µM
Nc1c(-c2c(Cl)cccc2Cl)[n+]([O-])c2ccccc2[n+]1[O-] |  | 4.69 µg/mL
CCOP(=O)(OCC)C1=NOC(Cn2cc(C)c(=O)[nH]c2=O)C1 |  | >400 µM

For reference, 11 entries again:

smiles,method,value
Cc1c(CNc2cccc3c2CCCC3)cnc2nc(N)nc(N)c12,,322 µg/mL
CC(=O)O[C@H]1C2=C(C[C@](C)(O)[C@H]3C[C@](C)(COC(=O)[C@H](O)[C@@H](NC(=O)c4ccccc4)c4ccccc4)C[C@@H]13)C(=O)OC2,,>1000 µg/mL
CC(C)(C)OC(=O)NC1C2CN(c3cc4c(=O)c(C(=O)O)c5n(c4cc3F)CS5)CC21,MTT,140 µM
COc1cc2c(cc1OC)CN(c1c([N+](=O)[O-])cc3c(=O)c(C(=O)O)cn(C4CC4)c3c1C)CC2,,130 µM
Nc1nc2c(ncn2[C@@H]2O[C@H](CO)[C@@H](O)[C@H]2O)c(=O)o1,,680 µM
Nc1c(-c2c(Cl)cccc2Cl)[n+]([O-])c2ccccc2[n+]1[O-],,4.69 µg/mL
C=CCCCCn1c2ccccc2c2c(C)c3c[n+](C)ccc3c(C)c21,,5 µg/mL
O=C(O)c1c2n(c3cc([N+](=O)[O-])c(N4CCC(N5CCCCC5)CC4)cc3c1=O)CS2,MTT,141 µM
Nc1ncnc2c1ncn2[C@@H]1O[C@H](CSCCC(N)C(=O)O)C[C@H]1O,,200 µg/mL
CC1(C)C[C@H]2[C@H](OC(=O)[C@H](O)[C@@H](NC(=O)c3ccccc3)c3ccccc3)C3=C(COC3=O)C[C@](C)(O)[C@H]2C1,,107.9 µg/mL
CCOC(=O)C(NC(=O)c1ccccc1)(N1CCN(c2cc3c(cc2F)c(=O)c(C(=O)O)cn3CC)CC1)C(F)(F)F,,>62.5 µg/mL